# Assay results: PubChem BioAssay AID504690 (Sanford-Burnham Center for Chemical Genomics, 2011)
# This is a selection; strong and weak results do not stand in their true shares. Calls of active or inactive are those of the source.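 How the source made its calls: active means inhibition reaching at least a set limit at 20 µM in the primary screen (cut at about 59% in these data); inactive means the rest.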
# Test system: glucose-6-phosphate dehydrogenase-6-phosphogluconolactonase (Plasmodium falciparum 3D7)
# Test: inhibition of malaria parasite G6PD (PfGluPho) – biochemical, fluorescence intensity, uHTS, primary screen (AID 504690);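 further: 0% = DMSO wells with substrate and 100% = DMSO wells lacking glucose-6-phosphate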
# Details: PfGluPho enzyme, NADPH resazurin-diaphorase fluorescence; at 20 µM; stronger effect = higher value
row,Structure (SMILES),inhibition
1,O=C(COc1ccccc1)OC1CN2CCC1CC2 (stereo unspecified),inactive: -18.4%
